According to paper PMC11239830, “Synthetic macrolides overcoming MLSBK-resistant pathogens” (Cell Discovery, 2024):

Tested on: E. coli strain SQ110DTC
Test: Selection of resistant mutants in SQ110DTC
Assay type: cell-based
Conditions: 3–9-fold MIC; 23S rRNA and DNA gyrase sequenced

CC[C@H]1OC(=O)[C@H](C)[C@@H](OC(=O)NCCCCCCC#Cc2ccc3c(=O)c(C(=O)O)cn(C)c3c2)[C@H](C)[C@@H](O[C@@H]2O[C@H](C)C[C@H](N(C)C)[C@H]2O)[C@](C)(OC)C[C@@H](C)C(=O)[C@H](C)[C@H]2NC(=O)O[C@@]21C [MCX-219]
mutations in resistant colonies: mutations at A2058G or A2059G positions in the rRNA, with no mutations detected in the gyrase

CC[C@H]1OC(=O)[C@H](C)[C@@H](OC(=O)NCCCOCCC#Cc2ccc3c(=O)c(C(=O)O)cn(C)c3c2)[C@H](C)[C@@H](O[C@@H]2O[C@H](C)C[C@H](N(C)C)[C@H]2O)[C@](C)(OC)C[C@@H](C)C(=O)[C@H](C)[C@H]2NC(=O)O[C@@]21C [MCX-190]
mutations in resistant colonies: mutations at A2058G or A2059G positions in the rRNA, with no mutations detected in the gyrase
